The record followed here is patent publication US20190298669A1 (priority 2018, published 2019).

“And” between values parts separate entries of the source, which are not always exact repeats. Identical values can stand only once.

The subject of experiment [1] is A/Mississippi/3/2001 wild type (H1N1). The experiment is classed as cell-based.
The subject of experiment [2] is A/Regensburg/D6/2009 (RB1, H1N1pdm09). Conditions: mouse, in vivo.

Turning to `CCOC(=O)C1=C[C@@H](OC(CC)CC)[C@H](NC(C)=O)[C@@H](N)C1` [oseltamivir], the “virus found after treatment” value in experiment [1] is recorded as “No virus was detectable”. For the same compound, in experiment [2], the mice died is 2/5 and 5/5.
